Anti-infective test results gathered from many reports (values: NIAID ChemDB through PubChem).

All rows: target-level tests; organism: Pneumocystis carinii

Rows are shuffled and stem from different studies.

O=c1ccc2ccc(OCC#CCN3CCCC3)cc2o1 ; protein: Oxidosqualene cyclase ; measure: IC50 ; value: 0.52 µM
O=CNc1ccc(S(=O)(=O)c2ccc(NC=O)cc2)cc1 ; protein: DHPS ; measure: IC50 ; value: 621.8 µM
Nc1nc2occ(-c3ccccc3)c2c(=O)[nH]1 ; protein: DHFR ; measure: IC50 ; value: 32 µM
Nc1nc(N)c2nc(Cc3ccc(Cl)c(Cl)c3)c(Cc3ccc(Cl)c(Cl)c3)nc2n1 ; protein: DHFR ; measure: IC50 ; value: 4.4 µM
CC(=O)Nc1ccc(C(=O)O)cc1 ; protein: DHPS ; measure: inhibition ; dose: 10 µM ; value: 12.5%
CSc1nc2nc(N)nc(N)c2c2c1CCCC2 ; protein: DHFR ; measure: IC50 ; value: >30 µM
COc1ccc(Cl)cc1-c1coc2nc(N)[nH]c(=O)c12 ; protein: DHFR ; measure: IC50 ; value: 9 µM
Nc1nc(N)c2cc(C(F)(F)F)ccc2n1 ; protein: DHFR ; measure: IC50 ; value: 2.7 µM
C=CC[N+](C)([O-])CC#CCCCCOc1ccc2ccc(=O)oc2c1 ; protein: Oxidosqualene cyclase ; measure: IC50 ; value: >10 µM
Nc1nc(N)c2c(I)cccc2n1 ; protein: DHFR ; measure: IC50 ; value: 0.52 µM
CC(=O)Nc1ccc(S(=O)(=O)NC(=O)NCCC(C)C)cc1 ; protein: DHPS ; measure: IC50 ; value: 783.6 µM
O=C(O)c1ccc(Cl)cc1Cl ; protein: DHPS ; measure: IC50 ; value: >1000 µM
CCN(CC)CC#CCOc1ccc2ccc(=O)oc2c1 ; protein: Oxidosqualene cyclase ; measure: IC50 ; value: 1.85 µM
COc1cc(NCc2csc3nc(N)nc(N)c23)cc(OC)c1OC ; protein: DHFR ; measure: IC50 ; value: >10 µM
Cl.Nc1ccc(C(=O)O)cc1N ; protein: DHPS ; measure: IC50 ; value: 220 µM
O=c1ccc2ccc(OCCCCCCN3CCCCC3)cc2o1 ; protein: Oxidosqualene cyclase ; measure: IC50 ; value: 2.48 µM
Nc1nc(N)c2c(CNc3cc(Cl)c(-n4cccc4)c(Cl)c3)csc2n1 ; protein: DHFR ; measure: inhibition ; dose: 10 µM ; value: <30%
CN(C)CCCCCCCCCCOc1ccc2ccc(=O)oc2c1 ; protein: Oxidosqualene cyclase ; measure: IC50 ; value: 0.02 µM
Nc1nc2occ(-c3cccc(Cl)c3)c2c(=O)[nH]1 ; protein: DHFR ; measure: IC50 ; value: 24 µM
CC(=O)NS(=O)(=O)c1ccc(NC(=O)c2ccco2)cc1 ; protein: DHPS ; measure: IC50 ; value: 1309 µM
Nc1nc2occ(-c3ccc(Cl)cc3)c2c(=O)[nH]1 ; protein: DHFR ; measure: IC50 ; value: 14 µM
O=C(c1ccc(Cl)cc1)c1ccc(OCCN2CCN(CCO)CC2)cc1 ; protein: Oxidosqualene cyclase ; measure: inhibition ; dose: 2 µM ; value: 80%
C=CCN(C)CC#CCOc1ccc2ccc(=O)oc2c1 ; protein: Oxidosqualene cyclase ; measure: IC50 ; value: 1.12 µM
Nc1nc(N)c2cc(F)ccc2n1 ; protein: DHFR ; measure: IC50 ; value: 119 µM
CC(=O)Nc1ccc(C(=O)O)cc1 ; protein: DHPS ; measure: IC50 ; value: 120 µM
Nc1nc(N)c2c(OCC(F)(F)C(F)(F)C(F)(F)F)cccc2n1 ; protein: DHFR ; measure: IC50 ; value: 71 µM
CC(=O)NS(=O)(=O)c1ccc(N=NC2C(=O)N(C(=O)c3ccncc3)N=C2C)cc1 ; protein: DHPS ; measure: IC50 ; value: 2105 µM

The first 3 rows once more:

SMILES | protein | measure | dose | value
O=c1ccc2ccc(OCC#CCN3CCCC3)cc2o1 | Oxidosqualene cyclase | IC50 |  | 0.52 µM
O=CNc1ccc(S(=O)(=O)c2ccc(NC=O)cc2)cc1 | DHPS | IC50 |  | 621.8 µM
Nc1nc2occ(-c3ccccc3)c2c(=O)[nH]1 | DHFR | IC50 |  | 32 µM

ICn is the concentration giving n% inhibition. An empty or dashed field is not shown. Percent inhibition refers to the dose given; in toxicity tests it is the harm to the cells.